Pooled drug test results. Numbers come from NIAID ChemDB, via PubChem.

Common to all: whole-cell or culture tests; organism: Aspergillus niger; read-out: zone

An empty or dashed field is not shown.

CC(=NNC(=O)c1snnc1C(F)(F)F)c1ccccc1 ; strain: MTCC 1344 ; method: agar diffusion / agar ; dose: 100 µg/mL ; value: 0 mm
Clc1ccc2c(c1)Sc1cccnc1N2CCCCN1c2ccc(Cl)cc2Sc2cccnc21 ; strain: MTCC 282 ; dose: 100 µg/mL ; value: 10 mm
COc1ccc(NCc2cc3ccccc3nc2Cl)cc1 ; strain: MTCC 281 ; method: agar diffusion ; dose: 200 µg/mL ; value: 10.76 mm
COc1cc2c(cc1-c1cc(-c3ccc(F)cc3)nc(N)n1)CCC(C)(C)O2 ; method: agar diffusion ; dose: 100 µg/mL ; value: 24 mm
N#Cc1ccc(Nc2nc(Oc3ccnc4ccccc34)nc(N3CCN(Cc4ccccc4)CC3)n2)cc1C(F)(F)F ; strain: MTCC 282 ; method: agar ; dose: 100 µg/mL ; value: <10 mm
Cc1ccsc1/C=N/NC(N)=O ; method: agar diffusion ; dose: 250 µg/mL ; value: 0 mm
Clc1ccccc1C(c1ccccc1)(c1ccccc1)n1ccnc1 ; strain: NRRL 599 ; method: agar diffusion / agar ; dose: 200 µg/disc ; value: 40 mm
N=C1C(=S)N(c2cccc(F)c2)C(=O)N1c1ccc(F)cc1 ; method: agar diffusion / agar ; dose: 5 mg/mL ; value: 30 mm
CCc1c(Cc2ccc(OC)c(OC)c2)nc(SCCN2CCCC2)[nH]c1=O ; strain: NRRL 599 ; method: agar diffusion / agar ; dose: 200 µg/disc ; value: 31 mm
N#Cc1ccc(Nc2nc(Oc3ccnc4ccccc34)nc(N3CCC(Cc4ccccc4)CC3)n2)cc1C(F)(F)F ; strain: MTCC 282 ; method: agar ; dose: 100 µg/mL ; value: <10 mm
CC(=O)N1N=C(c2sc3ccccc3c2Cl)OC1c1ccc(F)cc1 ; dose: 5 µg/disc ; value: 11 mm
O=C(NN=Cc1ccccc1)c1snnc1C(F)(F)F ; strain: MTCC 1344 ; method: agar diffusion / agar ; dose: 100 µg/mL ; value: 0 mm
COc1ccc(OC)c(-c2cc(-c3cc4c(cc3OC)OC(C)(C)CC4)nc(N)n2)c1 ; method: agar diffusion ; dose: 100 µg/mL ; value: 16 mm
CC(=O)N1N=C(c2sc3ccccc3c2Cl)OC1c1ccc(Cl)cc1 ; dose: 5 µg/disc ; value: 9 mm
Fc1ccc2c(c1)Sc1cccnc1N2CCCCCCN1c2ccc(F)cc2Sc2cccnc21 ; strain: MTCC 282 ; dose: 100 µg/mL ; value: 10 mm
CCOc1ccc(N2C(=O)N(c3ccc(Cl)c(C(F)(F)F)c3)C(=N)C2=S)cc1 ; method: agar diffusion / agar ; dose: 5 mg/mL ; value: 17 mm
CC(=O)N1N=C(c2sc3ccccc3c2Cl)OC1c1ccccc1Cl ; dose: 5 µg/disc ; value: 11 mm
Clc1nc2ccccc2cc1CNC1CCCCC1 ; strain: MTCC 281 ; method: agar diffusion ; dose: 200 µg/mL ; value: 6.27 mm
CC(=O)c1cccc(-c2nnc(-c3sc4ccccc4c3Cl)o2)c1 ; dose: 5 µg/disc ; value: 11 mm
CC(=O)N[C@@H]1[C@@H](OC(C)=O)[C@H](OC(C)=O)[C@@H](COC(C)=O)O[C@H]1Sc1n[nH]c(-c2cc3ccccc3[nH]2)n1 ; method: agar diffusion ; dose: 5000 µg/mL ; value: 0 mm
Clc1ccc(-c2nnc(-c3sc4ccccc4c3Cl)o2)cc1 ; dose: 5 µg/disc ; value: 10 mm
CC[C@H](CC[C@@H](C)[C@H]1CCC2C3CC=C4CC(O)CC[C@]4(C)C3CC[C@@]21C)C(C)C ; strain: ATCC 16404 ; method: agar diffusion ; dose: 500 µg/mL ; value: 0 mm
CCN1CCN(c2nc(Nc3ccc(C#N)c(C(F)(F)F)c3)nc(Oc3ccnc4ccccc34)n2)CC1 ; strain: MTCC 282 ; method: agar ; dose: 100 µg/mL ; value: <10 mm
CN(Cc1cc2ccccc2nc1Cl)c1ccc(Cl)c(Cl)c1 ; strain: MTCC 281 ; method: agar diffusion ; dose: 200 µg/mL ; value: 21.13 mm
CCc1c(Cc2ccc(OC)c(OC)c2)nc(SCCN2CCCCC2)[nH]c1=O ; strain: NRRL 599 ; method: agar diffusion / agar ; dose: 200 µg/disc ; value: 25 mm
C=CC(C)(O)CC/C=C(\C)CCC=C(C)C ; strain: ATCC 16404 ; method: agar diffusion ; dose: 500 µg/mL ; value: 16.2 mm
CC(=O)Nc1ccc(Br)cc1Sc1ncccc1[N+](=O)[O-] ; strain: MTCC 282 ; dose: 100 µg/mL ; value: 16 mm
Clc1nc2ccccc2cc1CNc1ccc(Br)cc1 ; strain: MTCC 281 ; method: agar diffusion ; dose: 200 µg/mL ; value: 13.66 mm
CC1=Cc2c(CO)c(O)c(C)c(O)c2CO1 ; strain: IFM41398 ; method: agar diffusion ; dose: 100 µM ; value: 16 mm
c1ccc2c(c1)Sc1cccnc1N2CCCCCCN1c2ccccc2Sc2cccnc21 ; strain: MTCC 282 ; dose: 100 µg/mL ; value: 11 mm
CCc1c(Cc2ccc(C)cc2)[nH]c(=S)[nH]c1=O ; strain: NRRL 599 ; method: agar diffusion / agar ; dose: 200 µg/disc ; value: <10 mm
COc1cc2c(cc1-c1cc(-c3ccc(N(C)C)cc3)nc(N)n1)CCC(C)(C)O2 ; method: agar diffusion ; dose: 100 µg/mL ; value: 15 mm
C[C@H]1[C@H](O)[C@@H](C)/C=C/C=C/C=C/C=C/C=C/C=C/C=C/[C@H](O[C@@H]2O[C@H](C)[C@@H](O)[C@H](N)[C@@H]2O)C[C@@H]2O[C@](O)(C[C@@H](O)C[C@@H](O)CC[C@H](O)[C@@H](O)C[C@@H](O)CC(=O)O[C@H]1C)C[C@H](O)[C@H]2C(=O)O ; method: agar diffusion ; dose: 10 µg/mL ; value: 10 mm
COc1ccc(-c2cc(-c3cc4c(cc3OC)OC(C)(C)CC4)nc(N)n2)cc1 ; method: agar diffusion ; dose: 100 µg/mL ; value: 15 mm
C(=C\CN1c2ccccc2Sc2cccnc21)/CN1c2ccccc2Sc2cccnc21 ; strain: MTCC 282 ; dose: 100 µg/mL ; value: 12 mm
Clc1c(-c2nnc(-c3ccccc3)o2)sc2ccccc12 ; dose: 5 µg/disc ; value: 11 mm
C=CC(C)(O)CCCC(C)CCCC(C)CCCC(C)C ; strain: ATCC 16404 ; method: agar diffusion ; dose: 500 µg/mL ; value: 10.3 mm
CCc1c(Cc2ccc(Cl)cc2)[nH]c(=S)[nH]c1=O ; strain: NRRL 599 ; method: agar diffusion / agar ; dose: 200 µg/disc ; value: <10 mm
NNC(=O)c1cc2ccccc2[nH]1 ; method: agar diffusion ; dose: 5000 µg/mL ; value: 0 mm
CC(C)=CCC/C(C)=C/CC/C(C)=C/CC/C=C(/C)CC/C(C)=C\CO ; strain: ATCC 16404 ; method: agar diffusion ; dose: 500 µg/mL ; value: 13.4 mm
CC(C)N1CCN(c2nc(Nc3ccc(C#N)c(C(F)(F)F)c3)nc(Oc3ccnc4ccccc34)n2)CC1 ; strain: MTCC 282 ; method: agar ; dose: 100 µg/mL ; value: <10 mm
O=C(NN=Cc1cccs1)c1snnc1C(F)(F)F ; strain: MTCC 1344 ; method: agar diffusion / agar ; dose: 150 µg/mL ; value: 0 mm
Cc1c(Cc2ccc(Cl)cc2)nc(SCCN2CCOCC2)[nH]c1=O ; strain: NRRL 599 ; method: agar diffusion / agar ; dose: 200 µg/disc ; value: <10 mm
OC(Cn1cncn1)(Cn1cncn1)c1ccc(F)cc1F ; strain: MTCC 1881 ; dose: 500 µg/mL ; value: 30 mm
CCc1c(Cc2ccc(OC)c(OC)c2)[nH]c(=S)[nH]c1=O ; strain: NRRL 599 ; method: agar diffusion / agar ; dose: 200 µg/disc ; value: <10 mm
CC(=O)c1ccc(-c2nnc(-c3sc4ccccc4c3Cl)o2)cc1 ; dose: 5 µg/disc ; value: 10 mm
O=C(NN=Cc1ccc(F)cc1)c1snnc1C(F)(F)F ; strain: MTCC 1344 ; method: agar diffusion / agar ; dose: 100 µg/mL ; value: 0 mm
CN(Cc1cc2ccccc2nc1Cl)c1ccc(F)cc1 ; strain: MTCC 281 ; method: agar diffusion ; dose: 200 µg/mL ; value: 15.86 mm
COC1=CC(=O)C[C@@H](C)[C@]12Oc1c(Cl)c(OC)cc(OC)c1C2=O ; method: agar diffusion / agar ; dose: 5 mg/mL ; value: 21 mm
CC1(C)C=C2C3CCC4[C@@]5(C)CC[C@H](OC(=O)/C=C/c6ccc(O)c(O)c6)C(C)(C)C5CC[C@@]4(C)[C@]3(C)CC[C@@]2(C)CC1 ; strain: UPCC 3701 ; method: agar diffusion ; dose: 30 mg/disc ; value: 0 mm
S=c1nc(-c2cc3ccccc3[nH]2)[nH][nH]1 ; method: agar diffusion ; dose: 5000 µg/mL ; value: 0 mm
CC1(C)C=C2C3CCC4[C@@]5(C)CC[C@H](OC(=O)/C=C/c6ccc(O)cc6)C(C)(C)C5CC[C@@]4(C)[C@]3(C)CC[C@@]2(C)CC1 ; strain: UPCC 3701 ; method: agar diffusion ; dose: 30 mg/disc ; value: 0 mm
CC[C@H](CC[C@@H](C)[C@H]1CCC2C3CC=C4CC(CC(=O)O)CC[C@]4(C)C3CC[C@@]21C)C(C)C ; strain: ATCC 16404 ; method: agar diffusion ; dose: 500 µg/mL ; value: 0 mm
CC(=O)c1cc(-c2nnc(-c3sc4ccccc4c3Cl)o2)ccc1O ; dose: 5 µg/disc ; value: 11 mm
CC1(CN2C(=N)C(=S)N(c3ccc(F)cc3)C2=O)CCC(N2C(=N)C(=S)N(c3ccc(F)cc3)C2=O)C(C)(C)C1 ; method: agar diffusion / agar ; dose: 5 mg/mL ; value: 0 mm
Fc1ccc2c(c1)Sc1cccnc1N2CCCCN1c2ccc(F)cc2Sc2cccnc21 ; strain: MTCC 282 ; dose: 100 µg/mL ; value: 11 mm

8 of the rows above, restated:

| compound | strain | method | dose | value |
|---|---|---|---|---|
| CCc1c(Cc2ccc(OC)c(OC)c2)nc(SCCN2CCCC2)[nH]c1=O | NRRL 599 | agar diffusion / agar | 200 µg/disc | 31 mm |
| COc1cc2c(cc1-c1cc(-c3ccc(F)cc3)nc(N)n1)CCC(C)(C)O2 |  | agar diffusion | 100 µg/mL | 24 mm |
| S=c1nc(-c2cc3ccccc3[nH]2)[nH][nH]1 |  | agar diffusion | 5000 µg/mL | 0 mm |
| C[C@H]1[C@H](O)[C@@H](C)/C=C/C=C/C=C/C=C/C=C/C=C/C=C/[C@H](O[C@@H]2O[C@H](C)[C@@H](O)[C@H](N)[C@@H]2O)C[C@@H]2O[C@](O)(C[C@@H](O)C[C@@H](O)CC[C@H](O)[C@@H](O)C[C@@H](O)CC(=O)O[C@H]1C)C[C@H](O)[C@H]2C(=O)O |  | agar diffusion | 10 µg/mL | 10 mm |
| Clc1nc2ccccc2cc1CNC1CCCCC1 | MTCC 281 | agar diffusion | 200 µg/mL | 6.27 mm |
| CC(=NNC(=O)c1snnc1C(F)(F)F)c1ccccc1 | MTCC 1344 | agar diffusion / agar | 100 µg/mL | 0 mm |
| COc1ccc(-c2cc(-c3cc4c(cc3OC)OC(C)(C)CC4)nc(N)n2)cc1 |  | agar diffusion | 100 µg/mL | 15 mm |
| C(=C\CN1c2ccccc2Sc2cccnc21)/CN1c2ccccc2Sc2cccnc21 | MTCC 282 |  | 100 µg/mL | 12 mm |

Lines come from different laboratories, so protocols vary. Zones are inhibition diameters on agar.